# Peptide text beside a SMILES is read from it.
# Tested on: human PBMC vs K562 and U937
# Experiment: Selectivity index SIn/t (normal vs tumor cells)
smiles,measurement,setting,value
CC[C@H](C)[C@H](NC(=O)[C@H](CCCNC(=N)N)NC(=O)[C@@H](NC(=O)[C@H](Cc1ccccc1)NC(=O)[C@@H]1CCCN1C(=O)[C@@H]1CCCN1C(=O)[C@@H]1CCCN1C(=O)[C@H](Cc1c[nH]cn1)NC(=O)[C@@H](NC(=O)[C@H](CCCNC(=N)N)NC(=O)[C@H](CCCNC(=N)N)NC(=O)[C@H](Cc1ccccc1)NC(=O)[C@@H]1CCCN1C(=O)[C@H](CC(C)C)NC(=O)[C@H](CCCNC(=N)N)NC(=O)[C@H](Cc1ccccc1)NC(=O)[C@@H](N)CCCNC(=N)N)[C@@H](C)CC)C(C)C)C(=O)N[C@@H](Cc1c[nH]cn1)C(=O)N1CCC[C@H]1C(=O)N1CCC[C@H]1C(=O)N1CCC[C@H]1C(=O)N[C@@H](Cc1ccccc1)C(=O)N[C@@H](Cc1ccc(O)cc1)C(=O)N[C@@H](CCCNC(=N)N)C(=O)N[C@@H](CCCNC(=N)N)C(=O)N[C@@H](Cc1ccccc1)C(=O)N[C@@H](CC(C)C)C(=O)O [ChBac3.4-1-COOH (rec)] (H-RFRLPFRRIHPPPFVRIHPPPFYRRFL-OH; N-terminus assumed),SIn/t IC50PBMC/IC50K562∙IC50U937,IC50 PBMC over geometric mean of IC50s toward K562 and U937,3.3
same,SIn/t ratio to ChBac3.4,ratio of SIn/t of the peptide to SIn/t of native ChBac3.4-NH2 (square brackets),1.9

# Source: article PMC7604311, “Caprine Bactenecins as Promising Tools for Developing New Antimicrobial and Antitumor Drugs” (Frontiers in Cellular and Infection Microbiology, 2020)
